{
  "source": "patent US20200040064A1",
  "about": "(OHIO STATE INNOVATION FOUNDATION, published 2020)",
  "binders": {"B1": {"name": "biotinylated CD16a (extracellular domain of human FcγRIIIA/CD16a) (receptor)", "chain": "not shown", "notes": "Detected with APC-streptavidin; also called fluorescently labeled CD16a"}},
  "key": {"[1]": {"target": "T1, HSV1 gE/gI complex on glioma cells expressing both Us7 and Us8 (glioma Us7+Us8) (herpes simplex virus 1 (F strain))", "T1 construct": "whole, on cells; Genes were expressed upstream of T2A-GFP", "assay": "flow cytometry, biotinylated CD16a + APC-streptavidin on transfected glioma cells, without IgG"}, "[2]": {"target": "T2, CMV gp68 on transfected glioma cells (CMV, UniProt P16739 24-345)", "T2 construct": "whole, on cells; also called 68 kDa-glycoprotein", "T2 sequence": "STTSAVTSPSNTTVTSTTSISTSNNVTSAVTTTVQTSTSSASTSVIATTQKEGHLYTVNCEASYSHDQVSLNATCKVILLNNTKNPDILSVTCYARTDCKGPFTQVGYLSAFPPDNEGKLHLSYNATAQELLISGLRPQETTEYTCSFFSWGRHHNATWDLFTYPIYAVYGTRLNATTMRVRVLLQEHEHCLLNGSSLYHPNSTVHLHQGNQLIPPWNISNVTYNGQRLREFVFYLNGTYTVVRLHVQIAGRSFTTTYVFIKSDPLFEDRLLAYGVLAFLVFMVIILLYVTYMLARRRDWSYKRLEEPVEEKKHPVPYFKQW", "assay": "flow cytometry, fluorescently labeled CD16a alone on transfected glioma cells"}},
  "data": [
    {"binder": "B1", "values": [
      {"measurement": "binding result", "setting": "[1]", "value": "no binding"},
      {"measurement": "binding result", "setting": "[2]", "value": "no binding"}
    ]}
  ]
}
